Pooled drug test results. Numbers come from NIAID ChemDB, via PubChem.

Common to all: growth or infection tests; species: HIV-1; read by: p24; measure: inhibition

Inhibition is in % at the dose shown (toxicity tests: loss of growth or viability). Rows are shuffled and stem from different studies. Blank or dashed fields: not listed here.

smiles	cell line	tested at	mutations	conditions	strain	result
CSCC[C@H](NC(=O)[C@H](Cc1ccc(O)cc1)NC(=O)[C@H](CCCCN)NC(=O)[C@@H](N)Cc1c[nH]c2ccccc12)C(=O)N[C@H](C(=O)N[C@H](CCSC)C(=O)O)C(C)C	PBMC	10 µM			BAL R5	38%
NCC(N)=O	H9	100 µM			SF2	99%
C[C@H]1[C@@H](OC(=O)CCC(=O)O)O[C@@H]2O[C@@]3(C)CC[C@H]4[C@H](C)CC[C@@H]1[C@@]24OO3	PM1	0.6 µM			BaL	36%
CC(=O)CCC(=O)NCCCOCCOCCCNC(=O)CNC(=O)[C@H](CS)NC(=O)[C@@H](NC(=O)[C@@H](NC(=O)[C@H](CO)NC(=O)[C@@H](N)CS)C(C)C)[C@@H](C)O	PBMC(PHA STIM.) + PBMC	0.66 µM			IIIB	66%
Cc1ccc(C)c(NS(=O)(=O)c2cc(C(=O)NCc3ccccn3)ccc2Cl)c1	C8166	1.25 µM	Raltegravir-resistant		Clinical isolate	90%
CCOC(=O)c1cn2c(c1O)C(=O)N(Cc1ccc(F)cc1)CC2	MT-4	95 µM				≤20%
Nc1ncnc2c1ncn2[C@@H]1O[C@H](COP(=O)([O-])O[C@@H]2C[C@@H](COP(=O)([O-])O[C@@H]3C[C@@H](COP(=O)([O-])O)O[C@H]3n3cnc4c(N)ncnc43)O[C@H]2n2cnc3c(N)ncnc32)[C@@H](O)[C@H]1O	H9	1 µM			IIIB	10%
O=P(O)(O)OP(=O)(O)OP(=O)(O)OP(=O)(O)O	H9	100 µg/mL			IIIB	21%
Cc1cn([C@H]2C[C@H](N=[N+]=[N-])[C@@H](COC(=O)C3=CN(C)C=CC3)O2)c(=O)[nH]c1=O	PHA-PBL + PBL	5 µM			CD 451	99.9%
Nc1nc(NC2CC2)c2ncn([C@H]3C=C[C@@H](CO)C3)c2n1	PBMC	7 µM	RT-M184V		XM-M184V	90%
O=C(O)C1=C[C@@H](OC(=O)c2cc(O)c(O)c(O)c2)[C@@H](O)[C@H](OC(=O)c2cc(O)c(O)c(O)c2)C1	H9	10 µM			IIIB	45%
Nc1nc(NC2CC2)c2ncn([C@H]3C=C[C@@H](CO)C3)c2n1	MDM + PBMC	0.5 µM			SF162	40%
CNC(=O)c1cn2c(c1O)C(=O)N(Cc1ccc(Cl)cc1)CC2	MT-4	95 µM				≤20%
Cc1cn([C@H]2C=C[C@@H](CO)O2)c(=O)[nH]c1=O	MT-4	0.5 µg/mL				100%
O=C(O)C1=C[C@@H](OC(=O)c2cc(O)c(O)c(O)c2)[C@@H](OC(=O)c2cc(O)c(O)c(O)c2)[C@H](OC(=O)c2cc(O)c(O)c(O)c2)C1	H9	0.2 µg/mL			IIIB	0%
Cc1cc(C)cc(S(=O)(=O)c2c(C(=O)NCC(=O)NC(C)C(=O)NN)[nH]c3ccc(Cl)cc23)c1	C8166	1 µM			EFV-resistant (RT K103R V179D P225H)	90%
CC(C)CN(C[C@@H](O)[C@H](Cc1ccccc1)NC(=O)O[C@H]1CCOC1)S(=O)(=O)c1ccc(O)c(N)c1	CEM	0.1 µM			IIIB	90%
NCC(=O)N1CCC[C@H]1C(=O)NCC(N)=O	H9	100 µM			SF2	98%
Nc1ncnc2c1ncn2C1OC(COP(=O)(O)OC2CC(COP(=O)(O)OC3CC(CO)OC3n3cnc4c(N)ncnc43)OC2n2cnc3c(N)ncnc32)CC1O	H9	1 µM			IIIB	80%
Cc1cc(C)cc(S(=O)(=O)c2c(C(N)=O)[nH]c3ccc(Cl)cc23)c1	MT-4	0.005 µM				90%
NC(=O)n1c(O)c(C(=O)c2cccs2)c2cc(Cl)ccc21	Jurkat cells	25 µM			MN	92%
O=C1OCC2OC(O)C(O)C(O)C2OC(=O)c2cc(O)c(O)c(O)c2-c2c(O)c(O)c3oc(=O)c4c(c(O)c(O)c5oc(=O)c2c3c54)-c2c1cc(O)c(O)c2O	H9	5 µg/mL			IIIB	60%
CCOC(=O)c1cn2c(c1O)C(=O)N(Cc1cccc(Cl)c1)CC2	MT-4	95 µM				≤20%
N#CC1C=Cc2ccccc2N1C(=O)c1ccc(Cl)cc1	PBMC	10 µM			D34	100%
CC(C)CN(C[C@@H](O)[C@H](Cc1ccccc1)NC(=O)O[C@H]1CO[C@H]2OCC[C@H]21)S(=O)(=O)c1ccc2nc(NC3CCN(C4CCCC4)CC3)sc2c1	PBMC	5 nM			SF2	90%
O=C(NCc1ccc(F)cc1)c1ncc2cccnc2c1O	MT-4	6 µM		50% human serum		>95%
O=C(Nc1ncc(Cl)s1)c1ccccc1O	PBMC	10 µg/mL			BaL	96.5%
COC1=C(Br)CC2(OC=C1Br)ON=C(C(=O)NCCCOc1c(Br)cc(CCN)cc1Br)[C@@H]2O	U1(HIV-1 (LAV)) + U1	20 µM			LAV	45%
NC(=O)NO	U-937	200 µM				68.75%
C/C(CC(=O)Nc1ccc(C(N)=O)cc1)=N\NC(=O)COc1ccc2ccccc2c1	MT-2	10 µM			IIIB	23%
COc1cc(O)c(CC=C(C)C)c(O)c1C(=O)/C=C/c1ccc(O)cc1	H9	121.8 µM			IIIB	54.2%
O=C(O)C[C@@H]1C(=O)O[C@H]2[C@@H]3OC(=O)c4cc(O)c(O)c(O)c4-c4c(cc(O)c(O)c4O)C(=O)OC[C@H]2O[C@@H](OC(=O)c2cc(O)c(O)c(O)c2)[C@@H]3OC(=O)c2cc(O)c(O)c3c2[C@H]1[C@H](O)C(=O)O3	H9	1 µg/mL			IIIB	50%
N#CC1CCCN1C(=O)C(Cc1ccccc1)NC(=O)OCC1c2ccccc2-c2ccccc21	CEM	12 µM			IIIB	17.1%
O=C(Nc1cc(NC(=O)c2ccccc2)cc(-c2nc3ccccc3c(=O)o2)c1)c1ccccc1	MT-2	10 µM			IIIB	22.5%
O=c1[nH]c(=O)n([C@H]2C[C@H](O)[C@@H](CO)O2)cc1F	PBMC	1.8 µM				90%
O=C(O)C[C@@H]1C(=O)O[C@H]2[C@@H]3OC(=O)c4cc(O)c(O)c(O)c4-c4c(cc(O)c(O)c4O)C(=O)OC[C@H]2O[C@@H](OC(=O)c2cc(O)c(O)c(O)c2)[C@@H]3OC(=O)c2cc(O)c(O)c3c2[C@H]1[C@H](O)C(=O)O3	H9	20 µM			IIIB	92%
Nc1ncnc2c1ncn2C1OC(COP(=O)(O)OC2C(O)C(COP(=O)(O)OC3CC(CO)OC3n3cnc4c(N)ncnc43)OC2n2cnc3c(N)ncnc32)CC1O	H9	1 µM			IIIB	75%
C[C@H](CCCC(C)(C)O)[C@H]1CC[C@H]2[C@@H]3CC=C4C[C@@H](O)CC[C@]4(C)[C@H]3CC[C@]12C	PBMC	1 µM			NL4-3	80%
CCOC(=O)c1cn2c(c1O)C(=O)N(Cc1ccccc1)CC2	MT-4	95 µM				≤20%
NS(=O)(=O)c1ccc(NC(=O)c2ccccc2SSc2ccccc2C(=O)Nc2ccc(S(N)(=O)=O)cc2)cc1	CEM + CEM-SS	100 µM			RF	85%
CO[C@H]1C[C@@H]2CC[C@@H](C)[C@@](O)(O2)C(=O)C(=O)N2CCCC[C@H]2C(=O)O[C@H]([C@H](C)C[C@@H]2CC[C@@H](O)[C@H](OC)C2)CC(=O)[C@H](C)/C=C(\C)[C@@H](O)[C@@H](OC)C(=O)[C@H](C)C[C@H](C)/C=C/C=C/C=C/1C	PBMC	0.0001 µM			ADA R5	48%
CC(=O)N(O)CCCCCNC(=O)CCC(=O)N(O)CCCCCNC(=O)CCC(=O)N(O)CCCCCN	H9	30 µM			IIIB	95%
Nc1cc(S(=O)(=O)O)c2ccccc2c1N	H9	1 µg/mL				0%
Nc1ncnc2c1ncn2[C@@H]1O[C@H](COP(=O)(O)O[C@@H]2[C@H](O)[C@@H](COP(=O)(O)O[C@@H]3[C@H](O)[C@@H](COP(=O)(O)O)O[C@H]3n3cnc4c(N)ncnc43)O[C@H]2n2cnc3c(N)ncnc32)[C@@H](O)[C@H]1O	H9	1 µM			IIIB	5%
CO[C@H]1C[C@@H]2CC[C@@H](C)[C@@](O)(O2)C(=O)C(=O)N2CCCC[C@H]2C(=O)O[C@H]([C@H](C)C[C@@H]2CC[C@@H](O)[C@H](OC)C2)CC(=O)[C@H](C)/C=C(\C)[C@@H](O)[C@@H](OC)C(=O)[C@H](C)C[C@H](C)/C=C/C=C/C=C/1C	Macrophage + Monocytes/macrophages	0.00001 µM			ADA R5	64%
COc1cc([C@@H]2c3cc4c(cc3[C@H](O)[C@H]3COC(=O)[C@H]23)OCO4)cc(OC)c1OC	H9	0.05 µM			IIIB	0%
NCC(=O)O	H9	100 µM			SF2	0%
CCc1cc(CCN2C(=O)c3ccccc3C2=O)c(=O)[nH]c1C	H9	40 µM			IIIB	95%
OCCCCCCOc1ccc(-c2ccccc2)cc1	JM	15 µg/mL			GB8	93%
CC(=O)O[C@H]1C[C@@]2(C)[C@@H](C[C@@H](O)C3[C@]2(C)CC[C@H]2[C@H](C)[C@H](O)CC[C@]32C)/C1=C(/CCC=C(C)C)C(=O)O	Macrophage + Monocytes/macrophages	10 µg/mL			IIIB	90%
CCc1c(Sc2ccccc2)n(COCc2ccccc2)c(=O)[nH]c1=O	MT-4	0.026 µM			A018A	90%
NCCSSCCN	Macrophage	50 µM			BaL	60%
O=C1OCC2OC(O)C(O)C(O)C2OC(=O)c2cc(O)c(O)c(O)c2-c2c(O)c(O)c3oc(=O)c4c(c(O)c(O)c5oc(=O)c2c3c54)-c2c1cc(O)c(O)c2O	H9	6 µM			IIIB	65%
Cc1cn([C@H]2C=C[C@@H](COC(=O)[C@H](Cc3c[nH]c4ccccc34)NC(=O)[C@@H](N)CCC(=O)O)O2)c(=O)[nH]c1=O	MT-4	0.7 µg/mL				100%
O=C1O[C@@H]2[C@@H](OC(=O)c3cc(O)c(O)c(O)c3-c3c1cc(O)c(O)c3O)[C@@H](O)O[C@@H]1COC(=O)c3cc(O)c(O)c(O)c3-c3c(O)c(O)c4oc(=O)c5c(c(O)c(O)c6oc(=O)c3c4c65)-c3c(cc(O)c(O)c3O)C(=O)O[C@@H]21	H9	5 µg/mL			IIIB	57%
COc1cc(CN2CCN(C[C@@H](O)[C@H](Cc3ccccc3)NC(=O)O[C@@H]3CCS(=O)(=O)[C@@H]3C(C)C)[C@H](C(=O)NC(C)(C)C)C2)cc2c1OCO2	MT-4	0.025 µM			IIIB	95%
COc1ccc(CCNC(=O)c2ccc(C(=O)NCCc3ccc(OC)c(OC)c3)nc2)cc1OC	MT-2	10 µM			IIIB	33.7%
CSc1cc(N)nc(S[C@@H](C)c2cc3c(C)coc3cn2)n1	MT-4	0.02 µM	RT-P236L		MF DLV-resistant (RT P236L)	90%
Cc1ccc(-c2ccc3c(c2)C=C(C(=O)Nc2ccc(C[N+](C)(C)C4CCOCC4)cc2)CCC3)cc1	PBMC	1 µM			TB5 CLADE C	73%
O=C(O)C[C@H]1C(=O)O[C@H]2[C@H](OC(=O)c3cc(O)c(O)c(O)c3)[C@@H](OC(=O)c3cc(O)c(O)c4c3[C@H]1[C@H](O)C(=O)O4)[C@H](OC(=O)c1cc(O)c(O)c(O)c1)O[C@@H]2COC(=O)c1cc(O)c(O)c(O)c1	H9	0.2 µg/mL			IIIB	0%
CCCCCCCCNCC(O)CCCCCCCCCn1c(=O)c2c(ncn2C)n(C)c1=O	U1(HIV-1 (LAV)) + U1	5 µM			LAV	80%
O=C(O)C(O)c1ccccc1	U87 (CD4+ CXCR4+) + U87	10 µg/mL			IIIB	56%
C=CC(C)(/C=C\c1ccc(O)cc1)c1ccc(O)cc1.NC(=O)NO	Macrophage	0.00232 µM			BaL	90%
N[C@H]1CONC1=O	CEM	2.5 µg/mL			N1T	68%
Nc1ncnc2c1ncn2COCCOP(=O)([O-])O[C@@H]1[C@H](O)[C@@H](COP(=O)([O-])O[C@@H]2[C@H](O)[C@@H](COP(=O)([O-])O[C@@H]3[C@H](O)[C@@H](CO)O[C@H]3n3cnc4c(N)ncnc43)O[C@H]2n2cnc3c(N)ncnc32)O[C@H]1n1cnc2c(N)ncnc21	SupT1 + Sup-T1	100 µM				41%
O=c1[nH]cc(F)c(=O)[nH]1	PBMC	0.5 µM			JEW	0%
CC(C)C[C@@H](C=O)NC(=O)[C@H](CC(C)C)NC(=O)[C@H](CC(C)C)NC(=O)OCc1ccccc1	A3.01	40 µM			NL4-3	54%
O=C1O[C@@H]2[C@@H](OC(=O)c3cc(O)c(O)c(O)c3-c3c1cc(O)c(O)c3O)[C@@H](O)O[C@@H]1COC(=O)c3cc(O)c(O)c(O)c3-c3c(O)c(O)c4oc(=O)c5c(c(O)c(O)c6oc(=O)c3c4c65)-c3c(cc(O)c(O)c3O)C(=O)O[C@@H]21	H9	5 µM			IIIB	63%
C=C(C)[C@@H]1CC[C@]2(C(=O)NCCCCCCCC(=O)N[C@@H](CC(C)C)[C@@H](O)CC(=O)O)CC[C@]3(C)[C@H](CC[C@@H]4[C@@]5(C)CC[C@H](O)C(C)(C)[C@@H]5CC[C@]43C)[C@@H]12	HeLa P4 + HeLa	10 µM	I84S		LAI-R(GP41-I84S)	30%
C[S+](CC[C@H](N)C(=O)[O-])C[C@H]1O[C@@H](n2cnc3c(N)ncnc32)[C@H](O)[C@@H]1O	PBMC	100 µg/mL			IIIB	60%
NCCSSCCN	Macrophage	100 µM			BaL	65%